Measured values from several laboratories, pooled; numbers as filed in NIAID ChemDB.

All rows: tests in culture; organism: HIV-1

ECn is the concentration giving n% inhibition of infection, replication or growth. a–b is a range or a potency band. Conditions beyond the fields shown may differ between rows. Blank or dashed fields: not listed here.

| smiles | cell line | strain | endpoint | read by | mutations | value |
|---|---|---|---|---|---|---|
| N#Cc1cc(Cl)cc(Oc2cc(OCc3nc4cccc(Cl)c4s3)ccc2Cl)c1 | MT-4 | - | EC95 | p24 | - | <20 µM |
| Cc1cc(-c2c(C(OC(C)C)C(=O)O)c(C)nc3ccc(Cl)cc23)ccc1Cl | C8166 | - | EC50 | luciferase / reporter gene | - | <20 µM |
| Cn1c2ccccc2c(=O)c2c(O)cccc21 | OM-10.1 | IIIB | EC50 | p24 / ELISA | - | 2 µg/mL |
| COc1ccc(-c2c(C(OC)C(=O)O)c(C)nc3ccc(Cl)cc23)cc1 | C8166 | - | EC50 | luciferase / reporter gene | - | <20 µM |
| COc1cc(-c2ccc(N=Nc3ccc4c(S(=O)(=O)O)cc(S(=O)(=O)O)c(N)c4c3O)c(OC)c2)ccc1N=Nc1ccc2c(S(=O)(=O)O)cc(S(=O)(=O)O)c(N)c2c1O | CEM + CEM-SS | RF | EC50 | cytopathic effect / XTT | - | 1.7 µM |
| NS(=O)(=O)c1ccc(NC(=O)COc2cccc(Cc3ccccc3)c2)c(Cl)c1 | MT-4 | - | EC95 | p24 | - | <20 µM |
| O=C(O)C(=O)/C=C(\O)c1cc(Cc2ccc(F)cc2)cn(Cc2cccc(Cl)c2)c1=O | MAGI | - | EC50 | - | - | 1.2 µM |
| Cn1cc(NC(=O)c2cc(NC(=O)Nc3cc(C(=O)Nc4cc(C(=O)Nc5ccc6cc(S(=O)(=O)O)cc(S(=O)(=O)O)c6c5)n(C)c4)n(C)n3)nn2C)cc1C(=O)Nc1ccc2cc(S(=O)(=O)O)cc(S(=O)(=O)O)c2c1 | CEM + CEM-SS | RF | EC50 | cytopathic effect / XTT | - | 7.9 µM |
| Cc1nc2ccc(Br)cc2c(-c2ccc(Cl)cc2)c1C(OCCC(C)C)C(=O)O | C8166 | - | EC50 | luciferase / reporter gene | - | <20 µM |
| Cn1cc(N)cc1C(=O)Nc1cc(C(=O)Nc2ccc3cc(S(=O)(=O)O)cc(S(=O)(=O)O)c3c2)n(C)n1 | CEM + CEM-SS | RF | EC50 | cytopathic effect / XTT | - | 19.5 µM |
| CCN1c2ncc(CCOc3ccc(C(=O)Nc4cccc(CC(=O)O)c4)cc3C)cc2C(=O)N(C)c2cccnc21 | C8166 | IIIB | EC50 | p24 | - | 0.01–0.05 µM |
| CCCCCCCCCCCCCCCCOCCCOP(=O)(O)CO[C@H](CO)Cn1cnc2c(N)ncnc21 | MT-2 | 4xAZT | EC50 | p24 | RT-D67N K70R T215Y K219Q | 0.005 µM |
| COc1cccc2c1c(=O)c1ccccc1n2C | OM-10.1 | IIIB | EC50 | p24 / ELISA | - | 8.8 µg/mL |
| CS(=O)(=O)c1ccc(NC(=O)COc2cc(Cl)cc(Oc3cc(Cl)cc(C#N)c3)c2)c(Cl)c1 | MT-4 | - | EC95 | p24 | - | <20 µM |
| CCN1c2ncc(CCOc3ccc(NC(=O)NCC(=O)O)cc3C)cc2C(=O)N(C)c2cccnc21 | C8166 | IIIB | EC50 | p24 | - | 0.01–0.05 µM |
| COc1ccc(-c2c(C(OC(C)C)C(=O)O)c(C)nc3ccc(Cl)cc23)cc1 | C8166 | - | EC50 | luciferase / reporter gene | - | <20 µM |
| Cc1cc(F)ccc1Cc1cc(/C(O)=C/C(=O)C(=O)O)c(=O)n(Cc2ccc(F)cc2)c1 | MAGI | - | EC50 | - | - | 1 µM |
| N#Cc1cc(Cl)cc(Oc2cc(OCc3[nH]nc4nc(N5CCC(N)C5)ccc34)ccc2Cl)c1 | MT-4 | - | EC50 | p24 | - | <20 µM |
| CCCCCCCCCCCCCCC(=O)Oc1ccc(OP(=O)(OCc2ccc(OC(=O)CC(C)C)cc2)OP(=O)(O)OP(=O)(O)OC[C@@H]2C=C[C@H](n3cc(C)c(=O)[nH]c3=O)O2)cc1 | CEM/TK- | IIIB | EC50 | syncytia / visual reading | - | 0.39 µM |
| O=C(O)C(=O)/C=C(\O)c1cc(Cc2ccccc2)cn(Cc2cc(Cl)ccc2F)c1=O | MAGI | - | EC50 | - | - | 0.9 µM |
| CCCCCCCCCCCCCCCCCCOCCOP(=O)(O)CO[C@H](CO)Cn1cnc2c(N)ncnc21 | MT-2 | LAI WT | EC50 | p24 | RT | 0.0004 µM |
| NS(=O)(=O)c1ccc(NC(=O)COc2cc(Cl)cc(Oc3ccccc3)c2)c(Cl)c1 | MT-4 | - | EC50 | p24 | - | <20 µM |
| O=C(O)C(=O)/C=C(\O)c1cc(Cc2ccc(F)c(Cl)c2)cn(Cc2ccccc2F)c1=O | MAGI | - | EC50 | - | - | 2.2 µM |
| CCN1c2ncc(CCOc3ccc(C(=O)NNC)cc3C)cc2C(=O)N(C)c2cccnc21 | C8166 | - | EC50 | p24 | RT-K103N Y181C | <0.01 µM |
| CCN1c2ncc(CCOc3cccc4c3ccc[n+]4[O-])cc2C(=O)N(C)c2ccc(Cl)nc21 | C8166 | - | EC50 | p24 | RT-K103N Y181C | 0.011 µM |
| N#Cc1cc(Cl)cc(Oc2cc(F)cc(OCc3[nH]nc4ncccc34)c2)c1 | MT-4 | - | EC95 | p24 | - | <20 µM |
| CCCCCCCCCCCCCCC(=O)Oc1ccc(OP(=O)(OCc2ccc(OC(=O)CC)cc2)OP(=O)(O)OP(=O)(O)OC[C@@H]2C=C[C@H](n3cc(C)c(=O)[nH]c3=O)O2)cc1 | CEM/TK- | IIIB | EC50 | syncytia / visual reading | - | 1.1 µM |
| CCCC(C(=O)O)c1c(C(C)C)nc2ccc(Br)cc2c1-c1ccc(Cl)cc1 | C8166 | - | EC50 | luciferase / reporter gene | - | <20 µM |
| CN(C)c1ccc2c(COc3ccc(Cl)c(Oc4cc(Cl)cc(C#N)c4)c3)[nH]nc2n1 | MT-4 | - | EC95 | p24 | - | <20 µM |
| CCCC(C(=O)O)c1c(-c2ccc(Cl)cc2)c2cc(Cl)ccc2n(CCOC)c1=O | C8166 | - | EC50 | luciferase / reporter gene | - | <20 µM |
| CC(C)=CCC[C@]1(C)C=Cc2c(ccc3c2C(=O)C(O)=C(C2=C(C4=C(O)C(=O)c5c(ccc6c5C=C[C@@](C)(CCC=C(C)C)O6)C4=O)C(=O)c4c(ccc5c4C=C[C@@](C)(CCC=C(C)C)O5)C2=O)C3=O)O1 | MT-4 | RF | EC50 | cytopathic effect / XTT | - | ≤0.02 µM |
| CCCC(C(=O)O)c1c(C)nc2ccc(Cl)cc2c1-c1ccc(OC)cc1C | C8166 | - | EC50 | luciferase / reporter gene | - | <20 µM |
| COc1cccc2[nH]c3ccccc3c(=O)c12 | OM-10.1 | IIIB | EC50 | p24 / ELISA | - | >17 µg/mL |
| N#Cc1cc(Cl)cc(Oc2cc(Cl)cc(OCC(=O)Nc3ccc(C#N)cc3Cl)c2)c1 | MT-4 | - | EC50 | p24 | - | <20 µM |
| O=S(=O)(c1cccc2cnccc12)N1CCNCC1 | U-937 | IIIB | EC50 | p24 / ELISA | - | >10.5 µg/mL |
| Cn1cc(NC(=O)Nc2cc(C(=O)Nc3cc(C(=O)Nc4cc(S(=O)(=O)O)c5cc(S(=O)(=O)O)cc(S(=O)(=O)O)c5c4)n(C)c3)n(C)c2)cc1C(=O)Nc1cc(C(=O)Nc2cc(S(=O)(=O)O)c3cc(S(=O)(=O)O)cc(S(=O)(=O)O)c3c2)n(C)c1 | CEM + CEM-SS | G762-3 | EC50 | cytopathic effect / XTT | - | 0.2 µM |
| CCCCCCCCCCCCCCC(=O)Oc1ccc(OP(=O)(OCc2ccc(OC(=O)CCCC)cc2)OP(=O)(O)OP(=O)(O)OC[C@@H]2C=C[C@H](n3cc(C)c(=O)[nH]c3=O)O2)cc1 | CEM | IIIB | EC50 | syncytia / visual reading | - | 0.14 µM |
| CCN1c2ncc(CCOc3ccc(-c4ccc(O)cc4)cc3C)cc2C(=O)N(C)c2cccnc21 | C8166 | IIIB | EC50 | p24 | - | <0.01 µM |
| CCCCCCCCCCCCCCC(=O)Oc1ccc(OP(=O)(OCc2ccc(OC(=O)CCCCCC)cc2)OP(=O)(O)OP(=O)(O)OC[C@@H]2C=C[C@H](n3cc(C)c(=O)[nH]c3=O)O2)cc1 | CEM/TK- | IIIB | EC50 | syncytia / visual reading | - | 0.74 µM |
| Cc1cccc(Cn2cc(Cc3ccccc3F)cc(/C(O)=C/C(=O)C(=O)O)c2=O)c1 | MAGI | - | EC50 | - | - | 0.9 µM |

A second listing of 6 rows from above:

smiles | cell line | strain | endpoint | read by | mutations | value
Cn1cc(NC(=O)Nc2cc(C(=O)Nc3cc(C(=O)Nc4cc(S(=O)(=O)O)c5cc(S(=O)(=O)O)cc(S(=O)(=O)O)c5c4)n(C)c3)n(C)c2)cc1C(=O)Nc1cc(C(=O)Nc2cc(S(=O)(=O)O)c3cc(S(=O)(=O)O)cc(S(=O)(=O)O)c3c2)n(C)c1 | CEM + CEM-SS | G762-3 | EC50 | cytopathic effect / XTT | - | 0.2 µM
COc1cccc2c1c(=O)c1ccccc1n2C | OM-10.1 | IIIB | EC50 | p24 / ELISA | - | 8.8 µg/mL
Cc1cc(-c2c(C(OC(C)C)C(=O)O)c(C)nc3ccc(Cl)cc23)ccc1Cl | C8166 | - | EC50 | luciferase / reporter gene | - | <20 µM
CCCCCCCCCCCCCCC(=O)Oc1ccc(OP(=O)(OCc2ccc(OC(=O)CCCC)cc2)OP(=O)(O)OP(=O)(O)OC[C@@H]2C=C[C@H](n3cc(C)c(=O)[nH]c3=O)O2)cc1 | CEM | IIIB | EC50 | syncytia / visual reading | - | 0.14 µM
CCCC(C(=O)O)c1c(-c2ccc(Cl)cc2)c2cc(Cl)ccc2n(CCOC)c1=O | C8166 | - | EC50 | luciferase / reporter gene | - | <20 µM
CCCCCCCCCCCCCCCCCCOCCOP(=O)(O)CO[C@H](CO)Cn1cnc2c(N)ncnc21 | MT-2 | LAI WT | EC50 | p24 | RT | 0.0004 µM